# Data as given in publication PMC6781885.
# Experiments:
# [1] = molecular target: T1, VncRc (VncR C-terminal DNA-binding domain) (Streptococcus pneumoniae D39 (type 2)) (UniProt A0A0H2ZPY6); assay: EMSA; settings: 10% human serum, 10 mM Mg2+, EMSA: 10 mM Tris-HCl pH 7.9, 10 mM MgCl2, 50 mM NaCl, 100 ug/ml BSA, 10% serum, 5 min at 37 C, 200 ng DNA with equal amount of protein, recombinant protein, probe letters rebuilt from the primers and the genome
# [2] = molecular target: T1, VncRc (VncR C-terminal DNA-binding domain) (Streptococcus pneumoniae D39 (type 2)); assay: pull-down (anti-His co-IP, PCR); settings: serum condition not stated; recombinant protein; probe letters rebuilt from the primers and the genome
Sequence,"binding result ([1]; serum alone also shifts, VncRc supershifts)",binding result [2],binding result [1]
TACACATCTGCTTCTAAAATATTGTTAGAAAACGATTTGACTGTCCTGATCAATTTGTCATGTTCTTATTTCATTTTACTATATTTTTGGTTCGCGGGAAGTCTACTAAGATACTTAAAGATGCAGATAGTGAAAAAAGGTGTAGACATTACCGTAAAAAAGTGATATAATCGTAAGATGTTCAATGTATAGGTGTTAATCATGAGTAGACGTTTTAA (double strand) [cpsp type 2 (D39)],binds,binds,–
TACACATCTGCTTCTAAAATATTGTTAGAAAACGATTTGACTGTCCTGATCAATTTGTCATGTTCTTATTTCATTTTACTATATTTTTGGTTCGCGGGAAGTCTACTAAGATACTTAAAGATGCAGATAGTGAAAAAAGGTGTAGACATTACCGTAAAAAAGTGATATAATCGTAAGATGTTCAATGTATAGGTGTTAATCATGAGTAGACGTTTTAA (double strand) [cpsp type 6B (BG7322)],–,binds,binds

# The exact form of at least one protein or probe is not confirmed.
